In article PMC9597602, “Metal Complexes as Antifungals? From a Crowd-Sourced Compound Library to the First In Vivo Experiments” (JACS Au, 2022):

How the values were obtained:
human red blood cells = type: cell-based; settings: Therapeutic Index with respect to haemolysis against the best MIC measured
Procedure: Human whole blood (Australian Red Cross) was washed three times with 3 vol of 0.9% NaCl and resuspended in a concentration of 0.5 × 10^8 cells/mL, determined by a manual cell count in a Neubauer hemocytometer. […] After incubation, the plates were centrifuged at 1000g for 10 min to pellet cells and debris; 25 μL of the supernatant was then transferred to reading plates (384-well, polystyrene plated (PS), Corning CLS3680), with hemolysis determined by measuring the supernatant absorbance at […] (OD405) using cells without inhibitors as negative control and cells with 1% Triton X-100 (Sigma T8787) as positive control. […] Melittin (Sigma M2272) was used as internal control on each plate.

[1] = Therapeutic index against the best MIC measured; settings: for Minimum TI: lowest TI obtained in either TI_CC50 or TI_HC10; for therapeutic index: Table S7

SMILES | TI_HC10 (human red blood cells) | Minimum TI [1] | therapeutic index [1]
COc1ccc(/C=C/C2=NN(c3ccc(C(=O)[O][Ag])cc3)C(c3ccc(OC)c(OC)c3)C2)cc1OC.COc1ccc(/C=C/C2=NN(c3ccc(C(=O)[O][Ag])cc3)C(c3ccc(OC)c(OC)c3)C2)cc1OC (racemic) [Ag1, (Ε)-1-(4-Carboxyphenyl)-5-(3,4-dimethoxyphenyl)-3-(3,4-dimethoxystyryl)-2-pyrazoline silver(I) complex] | 2117-25,600 | 2117 | –
O=C([O][Ag])c1ccc(N2N=C(/C=C/C=C/c3ccccc3)CC2/C=C/c2ccccc2)cc1.O=C([O][Ag])c1ccc(N2N=C(/C=C/C=C/c3ccccc3)CC2/C=C/c2ccccc2)cc1 (racemic) [Ag2, 1-(4-Carboxyphenyl)-3-{(1E,3E)-4-phenylbuta-1,3-dien-1-yl}-5-{(E)-styryl}-2-pyrazoline silver(I) complex] | 33,333 | 933 | –
c1cnc([S][Au][PH](c2ccco2)(c2ccco2)c2ccco2)nc1 [Au1] | 3746-8333 | 5 | –
CC(=NN=C(N)[S-])C(C)=NN=C(N)[S-].O=[N+]([O-])[O-].[Co+3].c1c[nH]cn1.c1c[nH]cn1 [Co1] | 256 | 256 | –
Cc1ccc2ccc3ccc(C)nc3c2n1.Cc1ccc2ccc3ccc(C)nc3c2n1.O=C([O][Eu]([O]C(=O)c1ccccc1F)[O]C(=O)c1ccccc1F)c1ccccc1F [Eu1] | 33,333 | 33,333 | 33,333
Cc1c(C)c(-c2ccc(-c3ccccc3)cc2)[c-](C)c1C.Cc1ccccc1NC1=[NH+][Ir]([Cl])[NH]C(NS(=O)(=O)c2ccc([N+](=O)[O-])cc2)=N1 [Ir2] | 3154 | 2600 | –
Cc1c(C)c(-c2ccc(-c3ccccc3)cc2)[c-](C)c1C.Cc1ccccc1NC1=[NH+][Ir]([Cl])[NH]C(NS(=O)(=O)c2cccc3c(N(C)C)cccc23)=N1 [Ir3] | 3383 | 3383 | –
C1=CCCC=CCC1.[Cl][Pd][Cl] [Pd1] | 13 | 13 | 13
CS(=O)(=O)[O][Pd][c]1ccccc1-c1ccccc1N.CS(=O)(=O)[O][Pd][c]1ccccc1-c1ccccc1N [Pd2] | 10-130 | 10 | –
C1=CCCC=CCC1.[Cl][Pt][Cl] [Pt1] | 64 | 64 | –
C1=CCCC=CCC1.[I][Pt][I] [Pt2] | 128 | 128 | –
CC(C)C([O][Pt][Cl])C1=CCCC=CCC1 (stereo not shown) [Pt4] | 128 | 128 | –
Cc1c(C)c(C)[c-](C)c1C.Cc1c(C)c(C)[c-](C)c1C.[Cl-].[Cl-].[Cl-].[Cl-].[Rh+3].[Rh+3] [Rh1] | 1-9 | 1 | –

For some of these results: The index is printed as in the source, without its formula.
